Construct, isoform or probe ends are uncertain for at least one entry. Tags and fusion partners may be left off the protein sequences shown.
Key:
H-NS [1] = biological target: T1, H-NS (UniProt P0ACF8); assay: DNase I footprinting; conditions: 3.4 uM H-NS, 0.2 mM CaCl2, 2.5 mM MgCl2; recombinant protein; label: 5'-FAM on forward primer; probe letters rebuilt from the primers and the genome
T1 sequence (looked up, limits assumed): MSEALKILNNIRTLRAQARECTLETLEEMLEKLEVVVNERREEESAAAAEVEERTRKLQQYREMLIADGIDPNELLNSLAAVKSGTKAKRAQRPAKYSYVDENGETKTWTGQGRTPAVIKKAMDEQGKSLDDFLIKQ

H-NS [2] = biological target: T1, H-NS; assay: EMSA; conditions: H-NS 0-200 nM, DNA 1 nM; EMSA: 20 mM Tris-HCl pH 7.5, 80 mM NaCl, 0.1 mM EDTA, 1 mM DTT, 10% glycerol, 37 C, 30 min; footprinting in EMSA buffer + 0.2 mM CaCl2, 2.5 mM MgCl2, DNase I at 25 C; recombinant protein; probe letters rebuilt from the primers and the genome

Row | Sequence | binding result (H-NS [1]) | binding result (H-NS [2])
1 | TCTCTCCAGGGGCATTTGAAAAAATTGGGCCGATTATTCGCGCAACGCTAAACAGATAAATTAACATTATCTATAACCCCATAATTGCAGGAAATAATTATGGGTTTATCATTTATTTAATTTATAAGTTTGCTGGTTATTTTTCTTAAATAGAGTGAATGTTGCATTCAGTGGAATGAATTTACAAACTTCAGCTTCGGATAATTCTCACCAACTGGTAAAGTGAGCGCCGTGGAGATTTCCCCCTATTGGACTCATTTTCAGGTTATACCCCATGTCATCACTGAATATTAAACAGGGAAGTGACGCTCATTTTCCCGATTATCCTCTGGCGTCGCCCAGTAATAATGAAATTGATTTACTTAATCTAATCTCAGTTTTATGGCGGGCCAAAAAAACGGTCATGGCGGTCGTTTTTGCGTTTGCC (double strand) [fepE promoter PCR fragment, FAM-labelled] | binds | –
2 | TCTCTCCAGGGGCATTTGAAAAAATTGGGCCGATTATTCGCGCAACGCTAAACAGATAAATTAACATTATCTATAACCCCATAATTGCAGGAAATAATTATGGGTTTATCATTTATTTAATTTATAAGTTTGCTGGTTATTTTTCTTAAATAGAGTGAATGTTGCATTCAGTGGAATGAATTTACAAACTTCAGCTTCGGATAATTCTCACCAACTGGTAAAGTGAGCGCCGTGGAGATTTCCCCCTATTGGACTCATTTTCAGGTTATACCCCATGTCATCACTGAATATTAAACAGGGAAGTGACGCTCATTTTCCCGATTATCCTCTGGCGTCGCCCAGTAATAATGAAATTGATTTACTTAATCTAATCTCAGTTTTATGGCGGGCCAAAAAAACGGTCATGGCGGTCGTTTTTGCGTTTGCC (double strand) [fepE promoter PCR fragment] | – | binds

Source: paper PMC8669466
